Measured values from several laboratories, pooled; numbers as filed in NIAID ChemDB.

Shared fields: target-level tests

ICn is the concentration giving n% inhibition.

compound | strain or isolate | mutations | read by | protein | endpoint | tested at | agent | result
Cc1nc(C)c(-c2ccc3cc(-c4nc5cc(C(=O)O)ccc5n4C4CCCCC4)ccc3n2)s1 | - | - | - | NS5B polymerase | inhibition | 100 µM | Hepatitis C virus | 102%
CC(C)(C)c1ccc(-n2nnnc2SCC(=O)Nc2ccc(NC(=O)Cc3cccc[n+]3[O-])cc2Cl)c(Cl)c1 | WT | - | PicoGreen / fluorescence | Reverse transcriptase | IC50 | - | HIV-1 | <1 µM
NCc1ccc(-c2cncc(N3CCN(C(=O)c4ccco4)CC3)n2)cc1 | - | - | - | UL97 kinase | IC50 | - | Cytomegalovirus | <100 µM
C[C@@H]1CN(c2c(F)c(N)c3c(=O)c(C(=O)O)cn(C4CC4)c3c2F)C[C@H](C)N1 | J24 (quinolone- penicillin-sensitive) | - | - | Topoisomerase IV | IC50 | - | Streptococcus pneumoniae | 10.7 µg/mL
CCC(CC)n1c(-c2ccc3nc(-c4cc(OC)ccc4-c4ccc(Cl)cc4)ccc3c2)nc2cc(C(=O)O)ccc21 | - | - | - | NS5B polymerase | inhibition | 100 µM | Hepatitis C virus | 101%
O=C(CSc1nnnn1-c1ccc(C2CC2)cc1Cl)Nc1ccc(-c2ccc(OCCN3CCCCC3)cc2)c(F)c1Cl | - | RT-K103 Y181C | PicoGreen / fluorescence | Reverse transcriptase | IC50 | - | HIV-1 | <1 µM
Fc1ccc(N2CCN(c3cncc(-c4ccc(-c5ccccc5)c(F)c4)n3)CC2)cc1 | - | - | - | UL97 kinase | IC50 | - | Cytomegalovirus | <100 µM
O=C(NC(Cc1ccc(-c2ccccc2)cc1)C(=O)O)c1ccc2c(c1)nc(-c1ccc3nc(-c4ccccc4)cnc3c1)n2C1CCCCC1 | - | - | - | NS5B polymerase | inhibition | 100 µM | Hepatitis C virus | 96.08%
CC(C)(C)c1ccc(-n2nnnc2SCC(=O)Nc2ccc(C(=O)NCCN3CCOCC3)cc2Cl)c(Cl)c1 | - | RT-K103 Y181C | PicoGreen / fluorescence | Reverse transcriptase | IC50 | - | HIV-1 | <1 µM
CN(C)CCNC(=O)c1cccc(-c2cncc(Nc3ccc(C#N)c(Cl)c3)n2)c1 | - | - | - | UL97 kinase | IC50 | - | Cytomegalovirus | <1 µM
O=C(/C=C/c1ccccc1Cl)Nc1nnc(NCCc2cccs2)s1 | - | - | - | Polymerase | IC50 | - | Human cytomegalovirus | >25 µM
CC(C)(C#Cc1ccc(NC(=O)CSc2nnnn2-c2cc(C(F)(F)F)ccc2Cl)c(Cl)c1)OCCOc1ccncc1 | WT | - | PicoGreen / fluorescence | Reverse transcriptase | IC50 | - | HIV-1 | <1 µM
Clc1ccc(-c2cncc(NCc3ccccc3)n2)cc1 | - | - | - | UL97 kinase | IC50 | - | Cytomegalovirus | <100 µM
N#Cc1ccc(C(=O)Nc2nnc(NCC3CCCCC3)s2)cc1 | - | - | - | Polymerase | IC50 | - | Human cytomegalovirus | >25 µM
O=C(NC(Cc1c[nH]c2ccc(O)cc12)C(=O)O)c1ccc2c(c1)nc(-c1ccc3ncc(-c4ccccc4)nc3c1)n2C1CCCCC1 | - | - | - | NS5B polymerase | inhibition | 33 µM | Hepatitis C virus | 99.19%
N#Cc1ccccc1N1CCN(c2cncc(-c3ccc(Cl)cc3)n2)CC1 | - | - | - | UL97 kinase | IC50 | - | Cytomegalovirus | <10 µM
Oc1cc(O)c2c(c1)O[C@H](c1cc(O)c(O)c(O)c1)[C@@H](O)C2 | - | - | - | DNA polymerase | inhibition | 12.5 µg/mL | Epstein-Barr virus | 88.1%
CC(C)(C#Cc1ccc(NC(=O)CSc2nnnn2-c2ccc(C3CC3)cc2Cl)c(Cl)c1F)OCCN1CCC(F)(F)C1 | WT | - | PicoGreen / fluorescence | Reverse transcriptase | IC50 | - | HIV-1 | <1 µM
O=C(Nc1nnc(NCc2ccco2)s1)c1cc2ccccc2s1 | - | - | - | Polymerase | IC50 | - | Human cytomegalovirus | >25 µM
CC(C)(C#Cc1ccc(NC(=O)CSc2nnnn2-c2ccc(C(C)(C)C)cc2Cl)c(Cl)c1)OCC(=O)Nc1cnccn1 | - | RT-K103 Y181C | PicoGreen / fluorescence | Reverse transcriptase | IC50 | - | HIV-1 | <1 µM
O=C(O)c1ccc2c(c1)nc(-c1ccc3nc(-c4ccc(Oc5ccccc5)cc4)ccc3c1)n2C1CCCCC1 | - | - | - | NS5B polymerase | inhibition | 100 µM | Hepatitis C virus | 99.57%
N[C@@H]1CN(c2c(F)cc3c(=O)c(C(=O)O)cn([C@@H]4C[C@@H]4F)c3c2Cl)CC12CC2 | J24 (quinolone- penicillin-sensitive) | - | - | DNA gyrase | IC50 | - | Streptococcus pneumoniae | 1.16 µg/mL
Cc1cc(F)c(-n2nnnc2SCC(=O)Nc2ccc(-c3ccc(C(C)(C)C(=O)O)cc3)cc2Cl)c(Cl)c1 | - | RT-K103 Y181C | PicoGreen / fluorescence | Reverse transcriptase | IC50 | - | HIV-1 | <1 µM
O=C(Nc1nnc(NC2CCCCCC2)s1)c1ccc(I)cc1 | - | - | - | Polymerase | IC50 | - | Human cytomegalovirus | >25 µM
CC(C)(C)c1ccc(-n2nnnc2SCC(=O)Nc2ccc(-c3ccc(S(C)(=O)=O)cc3)cc2Cl)c(Cl)c1 | WT | - | PicoGreen / fluorescence | Reverse transcriptase | IC50 | - | HIV-1 | <1 µM
O=C(CCCCCl)Nc1nnc(NCCc2c[nH]c3ccccc23)s1 | - | - | - | Polymerase | IC50 | - | Human cytomegalovirus | >25 µM
CN1CCN(S(=O)(=O)c2ccc(NC(=O)CSc3nnnn3-c3ccc(C4CC4)cc3Cl)c(Cl)c2)CC1 | WT | - | PicoGreen / fluorescence | Reverse transcriptase | IC50 | - | HIV-1 | <1 µM
CSc1ccc(-c2cncc(N3CCN(c4ccc(C)cc4)CC3)n2)cc1 | - | - | - | UL97 kinase | inhibition | 1 µM | Cytomegalovirus | <50%
CC(C)(C#Cc1ccc(NC(=O)CSc2nnnn2-c2ccc(C(C)(C)C)cc2Cl)c(Cl)c1)COC(N)=O | WT | - | PicoGreen / fluorescence | Reverse transcriptase | IC50 | - | HIV-1 | <1 µM
COc1cc(O)c(-c2ccc3cc(-c4nc5cc(C(=O)O)ccc5n4C4CCCCC4)ccc3n2)c(OC)c1 | - | - | - | NS5B polymerase | inhibition | 100 µM | Hepatitis C virus | 102%
CC(C)(C)c1ccc(-n2nnnc2SCC(=O)Nc2ccc(C#CCN3CCCC3)cc2Cl)c(Cl)c1 | WT | - | PicoGreen / fluorescence | Reverse transcriptase | IC50 | - | HIV-1 | <1 µM
COc1ccc(-c2ccc(F)c(F)c2)c(-c2ccc3cc(-c4nc5cc(C(=O)O)ccc5n4C4CCCCC4)ccc3n2)c1 | - | - | - | NS5B polymerase | inhibition | 33 µM | Hepatitis C virus | 101%
COc1ccc(N2CCN(c3cnccn3)C(c3cc4ccccc4o3)C2)cc1 | - | - | - | UL97 kinase | IC50 | - | Cytomegalovirus | <10 µM
COc1ccccc1C(=O)Nc1nnc(NCCc2c[nH]c3ccccc23)s1 | - | - | - | Polymerase | IC50 | - | Human cytomegalovirus | >25 µM
COc1ccc(C2CCCCC2)c(-c2ccc3cc(-c4nc5cc(C(=O)O)ccc5n4C4CCCCC4)ccc3n2)c1 | - | - | - | NS5B polymerase | inhibition | 33 µM | Hepatitis C virus | 99.18%
CN(C)c1cccc(-c2cncc(N3CCN(c4ccncc4)CC3)n2)c1 | - | - | - | UL97 kinase | inhibition | 10 µM | Cytomegalovirus | >15%
CCOC(=O)NC(C)(C)C#Cc1ccc(NC(=O)CSc2nnnn2-c2ccc(C3CC3)cc2Cl)c(Cl)c1 | - | RT-K103 Y181C | PicoGreen / fluorescence | Reverse transcriptase | IC50 | - | HIV-1 | <1 µM
COc1ccccc1N1CCN(c2cncc(-c3ccccc3C)n2)CC1 | - | - | - | UL97 kinase | IC50 | - | Cytomegalovirus | <100 µM
CC(C)(C)c1ccc(-n2nnnc2SCC(=O)Nc2ccc(-c3cccc(C(=O)O)c3)cc2Cl)c(Cl)c1 | - | RT-K103 Y181C | PicoGreen / fluorescence | Reverse transcriptase | IC50 | - | HIV-1 | <1 µM
COc1ccc(-c2ccc(Cl)cc2)c(-c2ccc3cc(-c4nc5cc(C(=O)O)ccc5n4C4CCCC4)ccc3n2)c1 | - | - | - | NS5B polymerase | inhibition | 33 µM | Hepatitis C virus | 99.2%
O=C(OC1OC2COC(=O)c3cc(Oc4c(C(=O)OC5C(O)OC6COC(=O)c7cc(O)c(O)c(O)c7-c7c(cc(O)c(O)c7O)C(=O)OC6C5OC(=O)c5cc(O)c(O)c(O)c5)cc(O)c(O)c4O)c(O)c(O)c3-c3c(cc(O)c(O)c3O)C(=O)OC2C(OC(=O)c2cc(O)c(O)c(O)c2)C1O)c1cc(O)c(O)c(O)c1 | - | - | - | DNA polymerase | inhibition | 80 µg/mL | Epstein-Barr virus | 42.5%
O=C(/C=C/c1ccccc1Cl)Nc1nnc(NCCSc2ccccc2)s1 | - | - | - | Polymerase | IC50 | - | Human cytomegalovirus | >25 µM
CC(C)(C)c1cc(Cl)c(-n2nnnc2SCC(=O)Nc2ccc(-c3ccc(CC(=O)O)cc3)cc2Cl)c(Cl)c1 | - | RT-K103 Y181C | PicoGreen / fluorescence | Reverse transcriptase | IC50 | - | HIV-1 | <1 µM

Repeating the first 5 entries:

compound | strain or isolate | mutations | read by | protein | endpoint | tested at | agent | result
Cc1nc(C)c(-c2ccc3cc(-c4nc5cc(C(=O)O)ccc5n4C4CCCCC4)ccc3n2)s1 | - | - | - | NS5B polymerase | inhibition | 100 µM | Hepatitis C virus | 102%
CC(C)(C)c1ccc(-n2nnnc2SCC(=O)Nc2ccc(NC(=O)Cc3cccc[n+]3[O-])cc2Cl)c(Cl)c1 | WT | - | PicoGreen / fluorescence | Reverse transcriptase | IC50 | - | HIV-1 | <1 µM
NCc1ccc(-c2cncc(N3CCN(C(=O)c4ccco4)CC3)n2)cc1 | - | - | - | UL97 kinase | IC50 | - | Cytomegalovirus | <100 µM
C[C@@H]1CN(c2c(F)c(N)c3c(=O)c(C(=O)O)cn(C4CC4)c3c2F)C[C@H](C)N1 | J24 (quinolone- penicillin-sensitive) | - | - | Topoisomerase IV | IC50 | - | Streptococcus pneumoniae | 10.7 µg/mL
CCC(CC)n1c(-c2ccc3nc(-c4cc(OC)ccc4-c4ccc(Cl)cc4)ccc3c2)nc2cc(C(=O)O)ccc21 | - | - | - | NS5B polymerase | inhibition | 100 µM | Hepatitis C virus | 101%

An empty or dashed field is not shown. Conditions beyond the fields shown may differ between rows. Percent inhibition refers to the dose given; in toxicity tests it is the harm to the cells.